# Assay results reported in patent US20230346820A1, “METHODS AND COMPOSITIONS FOR THE TREATMENT OF SARS-COV-2” (priority 2020, published 2023).
# Test system: SARS-CoV-2
# Experiment: SARS-CoV-2/HeLa-ACE2 high-content screening assay (% infected cells)
# Details: Table 1; selectivity ratio
compound,measurement,value
c1ccc2c(NCCCCNc3c4c(nc5ccccc35)CCCC4)c3c(nc2c1)CCCC3,HeLa-ACE2 CC50/CoV-2 EC50,18.26
